Results deposited as PubChem BioAssay AID504761 (Drosophila RNAi Screening Center, 2011)

- Assay: 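Insect host genes that dengue virus relies on to spread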 (primary screen)
- System: D.Mel-2 cells from Drosophila
- Reagents: long dsRNA against Drosophila genes
- Conditions: infection with dengue virus type 2; dose and infection time not stated
- Measured: 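Per well on two replicate plates, imaging gave the percent of cells positive for viral envelope protein, ranked by infection, and a nuclear count of cells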
- Reading the numbers: infection score: higher = more virus-infected cells; cell count: higher = more cells in the well
- Call rule: 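Very low infection ranking in both replicate wells (chance probability at most 0.065), then a retest showing infection dropped 1.5-fold or more at p below 0.05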
- Meaning of the calls: active = confirmed: knock-down lowers infection; inactive = not picked or not confirmed
In all, the deposit lists about 22,000 reagents; below is a random part of those with a known target gene and a result. Over the whole deposit, 116 (0.52%) are marked active. 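Calls depend on retest data that are not deposited; infection was ranked per plate without normalising between plates; the unit of the infection score is not given.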 Raw values are not corrected between plates. Reagent sequences are not shown. Not given: the amount of reagent, the time to read-out.

target | dsRNA | infection score, replicate 1 | infection score, replicate 2 | cell count, replicate 1 | cell count, replicate 2 | Outcome
CG13994 (GeneID 33853) | DRSC02326 | 5.4 | 20.1 | 6002 | 4474 | inactive
mRpS18A (GeneID 326141) | DRSC14369 | 13.2 | 26.7 | 4894 | 4764 | inactive
CG2811 (GeneID 37988) | DRSC04318 | 3.07 | 16.5 | 6652 | 5424 | inactive
CG13622 (GeneID 42923) | DRSC14624 | 1.57 | 6.22 | 6741 | 6299 | inactive
CG13622 (GeneID 42923) | DRSC27082 | 13.1 | 1.32 | 5944 | 6731 | inactive
Mtpalpha (GeneID 34276) | DRSC01994 | 13.8 | 6.14 | 6081 | 6075 | inactive
CG9667 (GeneID 40960) | DRSC16535 | 18.7 | 11.6 | 3227 | 3130 | inactive
CG9667 (GeneID 40960) | DRSC23667 | 11.8 | 12.9 | 4281 | 4161 | inactive
Atg17 (GeneID 40700) | DRSC12221 | 18.2 | 1.55 | 5256 | 6370 | inactive
CG31551 (GeneID 318795) | DRSC12159 | 2.24 | 8.05 | 7099 | 7353 | inactive
CG31551 (GeneID 318795) | DRSC22403 | 2.33 | 2.49 | 5885 | 6720 | inactive
CG31551 (GeneID 318795) | DRSC27808 | 5.89 | 12.2 | 6857 | 5723 | inactive
Rint1 (GeneID 38807) | DRSC11010 | 12.9 | 14.5 | 5294 | 5387 | inactive
Rint1 (GeneID 38807) | DRSC27960 | 11.1 | 15 | 6270 | 5620 | inactive
Rgl (GeneID 44115) | DRSC11267 | 0.65 | 2.99 | 6351 | 6425 | inactive
Bet3 (GeneID 39090) | DRSC10388 | 1.63 | 2.03 | 5759 | 5266 | inactive
Irp-1B (GeneID 41269) | DRSC16720 | 4.28 | 14.9 | 6403 | 6881 | inactive
Irp-1B (GeneID 41269) | DRSC24261 | 1.21 | 2 | 6760 | 6806 | inactive
rols (GeneID 39368) | DRSC09873 | 3.35 | 5.74 | 6322 | 5901 | inactive
rols (GeneID 39368) | DRSC10254 | 6.04 | 1.3 | 5881 | 6557 | inactive
rols (GeneID 39368) | DRSC10536 | 0.96 | 2.65 | 6266 | 6233 | inactive
Stat92E (GeneID 42428) | DRSC16870 | 2.89 | 4.79 | 6372 | 6162 | inactive
CG18223 (GeneID 40068) | DRSC10306 | 17.2 | 3.95 | 6396 | 6053 | inactive
CG14408 (GeneID 32407) | DRSC23396 | 1.82 | 2.79 | 6580 | 6519 | inactive
CG5282 (GeneID 40256) | DRSC11775 | 7.23 | 3.08 | 954 | 7113 | inactive
CG43896 (GeneID 39360) | DRSC10754 | 3.07 | 2.52 | 5865 | 6316 | inactive
CG43896 (GeneID 39360) | DRSC26965 | 10.8 | 5.8 | 6410 | 6451 | inactive
Mob4 (GeneID 35576) | DRSC04993 | 11.7 | 14.7 | 6410 | 6411 | inactive
Mob4 (GeneID 35576) | DRSC29567 | 19.4 | – | 3972 | 376 | inactive
CG13454 (GeneID 39676) | DRSC10001 | 6.17 | 3.25 | 6451 | 6218 | inactive
CG10383 (GeneID 35123) | DRSC02050 | 22.1 | 21.6 | 5902 | 5803 | inactive
CG10383 (GeneID 35123) | DRSC29310 | – | – | 311 | 317 | inactive
CG18371 (GeneID 36556) | DRSC06733 | 14 | 8.53 | 5960 | 7019 | inactive
Nazo (GeneID 40976) | DRSC14343 | 7.01 | 16 | 6591 | 5531 | inactive
CG6652 (GeneID 39905) | DRSC10686 | 1.22 | 6.2 | 7116 | 6371 | inactive
CG6652 (GeneID 39905) | DRSC28835 | 12.9 | 7.66 | 5453 | 5615 | inactive
tok (GeneID 42944) | DRSC17087 | 4.58 | 4.32 | 6897 | 6118 | inactive
Tsp5D (GeneID 31540) | DRSC18380 | 3.28 | 3.74 | 5822 | 5637 | inactive
exex (GeneID 38884) | DRSC10972 | 4.97 | 1.59 | 6179 | 6653 | inactive
exex (GeneID 38884) | DRSC24644 | 4 | 1.31 | 5856 | 5718 | inactive
